We go through nine substances from PMC7510464 (Bioengineering & Translational Medicine, 2020).

This data set is described as follows: general procedure: Fmoc solid-phase peptide synthesis; Rink Amide resin (0.52 mmol g^-1). As to conditions: whole synthesis.

Take Des[Leu]^12-Pol-CP-NH2: the “final HPLC purity” value is 99%.
Regarding Pol-CP-NH2, the “final HPLC purity” value stood at 99%.
For the substance [Glu]^3-[Lys]^5-[Glu]^12-Pol-CP-NH2, the “final HPLC purity” value is listed as 99%.
Then [Gly]^1-Pol-CP-NH2, with 99%; and [Leu]^5-[Lys]^9-Pol-CP-NH2, with 99%.
Turning to [Lys]^4-Pol-CP-NH2, the “final HPLC purity” value was found to be 98%.
Consider [Lys]^5-Pol-CP-NH2, for which the “final HPLC purity” value was found to be 99%.
As for [Lys]^7-Pol-CP-NH2, the “final HPLC purity” value was found to be 99%.
In the case of [Phe]^9-Pol-CP-NH2, the “final HPLC purity” value is 99%.
